Experimental data: PubChem BioAssay AID624099 (ICCB-Longwood, 2012)
The deposit covers about 21,000 reagents; shown is a random part of them. 497 of them (2.4%) count as active. 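Higher z means weaker E2 silencing; only reporter increases were scored, and knock-downs that hurt cell survival may mask genuine repressor factors.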 The numbers tell different reagents against one gene apart. Reagent sequences are not shown.

Assay: 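Knock-downs relieving repression by E2 of an HPV18 LCR luciferase reporter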 (primary screen)
Cells: human C33A cervical carcinoma cells (HPV-negative) stably expressing BPV1 E2 and an HPV18 LCR luciferase reporter
Knock-down reagent: siRNA pool against human genes, 40 nM
Duration: 72 h
Read-out: 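HPV18 LCR reporter light per well, converted to plate-wise z-scores that exclude control wells, and averaged over triplicate plates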
Direction: mean z-score and z-score: higher = stronger reporter signal, weaker E2 silencing
Rule for the call: 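Hit if mean z-score reaches 2 and two or more of three replicate z-scores also reach 2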

The opening 2 records as a preview:
RAB19 (GeneID 401409) #1 | mean z-score: -1.66; z-score, replicate A: -1.42; z-score, replicate B: -2.03; z-score, replicate C: -1.51; activity call: inactive
RAB19 (GeneID 401409) #2 | mean z-score: -2.47; z-score, replicate A: -2.29; z-score, replicate B: -2.76; z-score, replicate C: -2.37; activity call: inactive

The list itself, repeating the preview:
RAB19 (GeneID 401409) #1 | mean z-score: -1.66; z-score, replicate A: -1.42; z-score, replicate B: -2.03; z-score, replicate C: -1.51; activity call: inactive
RAB19 (GeneID 401409) #2 | mean z-score: -2.47; z-score, replicate A: -2.29; z-score, replicate B: -2.76; z-score, replicate C: -2.37; activity call: inactive
BAK1 (GeneID 578) | mean z-score: 2.03; z-score, replicate A: 1.71; z-score, replicate B: 2.32; z-score, replicate C: 2.06; activity call: active
UNC93B6 (GeneID 255620) | mean z-score: 0.84; z-score, replicate A: 0.7; z-score, replicate B: 1.35; z-score, replicate C: 0.46; activity call: inactive
APMAP (GeneID 57136) | mean z-score: -0.36; z-score, replicate A: -0.47; z-score, replicate B: -0.28; z-score, replicate C: -0.33; activity call: inactive
PHOSPHO1 (GeneID 162466) | mean z-score: 0.01; z-score, replicate A: -0.37; z-score, replicate B: -0.5; z-score, replicate C: 0.9; activity call: inactive
KDM6A (GeneID 7403) | mean z-score: 0.63; z-score, replicate A: 0.51; z-score, replicate B: 0.7; z-score, replicate C: 0.68; activity call: inactive
LOC388429 (retired record) (GeneID 388429) | mean z-score: 0.21; z-score, replicate A: 0.36; z-score, replicate B: -0.38; z-score, replicate C: 0.64; activity call: inactive
LINC00477 (GeneID 144360) | mean z-score: -0.87; z-score, replicate A: -0.93; z-score, replicate B: -0.85; z-score, replicate C: -0.85; activity call: inactive
ITPRIPL2 (GeneID 162073) | mean z-score: -0.11; z-score, replicate A: 0.07; z-score, replicate B: 0.2; z-score, replicate C: -0.6; activity call: inactive
C9orf163 (GeneID 158055) | mean z-score: -1.1; z-score, replicate A: -0.51; z-score, replicate B: -1.54; z-score, replicate C: -1.23; activity call: inactive
LOC402508 (retired record) (GeneID 402508) | mean z-score: 0.08; z-score, replicate A: -0.08; z-score, replicate B: -0.15; z-score, replicate C: 0.47; activity call: inactive
PHYKPL (GeneID 85007) | mean z-score: -0.81; z-score, replicate A: -0.67; z-score, replicate B: -1.01; z-score, replicate C: -0.73; activity call: inactive
STX18 (GeneID 53407) | mean z-score: 0.23; z-score, replicate A: 0.41; z-score, replicate B: 0.19; z-score, replicate C: 0.09; activity call: inactive
LOC285442 (GeneID 285442) | mean z-score: -0.51; z-score, replicate A: -0.42; z-score, replicate B: -0.39; z-score, replicate C: -0.72; activity call: inactive
TRPM4 (GeneID 54795) | mean z-score: -1.28; z-score, replicate A: -1.18; z-score, replicate B: -1.32; z-score, replicate C: -1.33; activity call: inactive
RPL13A (GeneID 23521) | mean z-score: -2.49; z-score, replicate A: -2.24; z-score, replicate B: -2.5; z-score, replicate C: -2.71; activity call: inactive
SCGN (GeneID 10590) | mean z-score: -2.34; z-score, replicate A: -2.34; z-score, replicate B: -2.42; z-score, replicate C: -2.26; activity call: inactive
SASS6 (GeneID 163786) | mean z-score: 2.42; z-score, replicate A: 2.91; z-score, replicate B: 2.53; z-score, replicate C: 1.82; activity call: active
GLYATL1 (GeneID 92292) | mean z-score: -0.17; z-score, replicate A: -0.03; z-score, replicate B: -0.22; z-score, replicate C: -0.27; activity call: inactive
LDAF1 (GeneID 57146) | mean z-score: -1.42; z-score, replicate A: -1.45; z-score, replicate B: -1.1; z-score, replicate C: -1.7; activity call: inactive
ESX1 (GeneID 80712) | mean z-score: 0.75; z-score, replicate A: 0.75; z-score, replicate B: 0.73; z-score, replicate C: 0.78; activity call: inactive
DLG3 (GeneID 1741) | mean z-score: 0.22; z-score, replicate A: 0.38; z-score, replicate B: 0.27; z-score, replicate C: 0.02; activity call: inactive
KCNA10 (GeneID 3744) | mean z-score: 0.52; z-score, replicate A: 0.76; z-score, replicate B: 0.56; z-score, replicate C: 0.25; activity call: inactive
UMPS (GeneID 7372) | mean z-score: 0.58; z-score, replicate A: 0.51; z-score, replicate B: 0.57; z-score, replicate C: 0.65; activity call: inactive
NELFCD (GeneID 51497) | mean z-score: -1.02; z-score, replicate A: -0.62; z-score, replicate B: -1.33; z-score, replicate C: -1.12; activity call: inactive
DNAJC24 (GeneID 120526) | mean z-score: 0.66; z-score, replicate A: 0.97; z-score, replicate B: 0.5; z-score, replicate C: 0.5; activity call: inactive
